Measured data: PubChem BioAssay AID1259414 (Drosophila RNAi Screening Center, 2018)
In all, the deposit lists about 24,000 reagents; this is a random part of those with a known target gene and a result. Of all reagents, about 1,210 (5%) were called active. 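Inactive calls also include excluded dsRNAs with several or no targets, genes unexpressed in JW18, and well A1, regardless of score.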 Unmarked entries are inactive. Reagents against one gene are numbered here. A plus sign joins genes that one reagent is predicted to hit.

Test: 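Fly genes that alter Wolbachia amount inside host cells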 (primary screen)
Cell system: Drosophila JW18 cells infected with Wolbachia
Reagent: long dsRNA against Drosophila genes, 0.25 µg dsRNA per well of a 384-well plate
Time to read-out: 5 days
Treatment: cells persistently infected with Wolbachia before knock-down; no added drug
Detection: 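Automated imaging of bacterial rRNA staining divided by host cell count, reported as plate-normalised robust z-score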
Direction: Wolbachia per cell robust z: higher = more Wolbachia per host cell than the plate typical
Rule for the call: 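Hit when robust z is 1.5 or more, or -1.5 or less, in at least two of three replicates; excludes dsRNAs with several or no targets, genes not expressed in JW18 and well A1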

What did the screen give for CG15330?
Wolbachia per cell robust z, rep 1: 0.266; Wolbachia per cell robust z, rep 2: 0.945; Wolbachia per cell robust z, rep 3: 0.955

With CG13640, how do the results read?
Wolbachia per cell robust z, rep 1: 0.246; Wolbachia per cell robust z, rep 2: 0.216; Wolbachia per cell robust z, rep 3: 0.0226

What did the screen give for MED27?
Wolbachia per cell robust z, rep 1: 0.295; Wolbachia per cell robust z, rep 2: 0.4; Wolbachia per cell robust z, rep 3: -0.987

How did the screen score dunk #1?
Wolbachia per cell robust z, rep 1: -4.33; Wolbachia per cell robust z, rep 2: -1.68; Wolbachia per cell robust z, rep 3: -7.97

With dunk #2, what does the deposit list?
Wolbachia per cell robust z, rep 1: 0.128; Wolbachia per cell robust z, rep 2: 0.000253; Wolbachia per cell robust z, rep 3: -1.22

For CG34426 #1, what does the deposit list?
Wolbachia per cell robust z, rep 1: -0.877; Wolbachia per cell robust z, rep 2: -3.44; Wolbachia per cell robust z, rep 3: 0.306

Which result is listed for CG34426 #2?
Wolbachia per cell robust z, rep 1: -2.04; Wolbachia per cell robust z, rep 2: 0.629; Wolbachia per cell robust z, rep 3: -1.93

For Rh5 #1, what does the deposit list?
Wolbachia per cell robust z, rep 1: -1.18; Wolbachia per cell robust z, rep 2: -2.46; Wolbachia per cell robust z, rep 3: -0.877

With Rh5 #2, what was measured?
Wolbachia per cell robust z, rep 1: 0.669; Wolbachia per cell robust z, rep 2: -6.19; Wolbachia per cell robust z, rep 3: -0.873

For skd #1, what does the deposit list?
Wolbachia per cell robust z, rep 1: -1.32; Wolbachia per cell robust z, rep 2: -0.825; Wolbachia per cell robust z, rep 3: -0.161

Which result is listed for skd #2?
Wolbachia per cell robust z, rep 1: 0.208; Wolbachia per cell robust z, rep 2: -0.539; Wolbachia per cell robust z, rep 3: 0.819

How did the screen score CG5953 #1?
Wolbachia per cell robust z, rep 1: -1.05; Wolbachia per cell robust z, rep 2: -0.339; Wolbachia per cell robust z, rep 3: -2.1

With CG5953 #2, how do the results read?
Wolbachia per cell robust z, rep 1: -0.11; Wolbachia per cell robust z, rep 2: -2.49; Wolbachia per cell robust z, rep 3: 0.204

What is on record for IFT43?
Wolbachia per cell robust z, rep 1: -0.464; Wolbachia per cell robust z, rep 2: 0.535; Wolbachia per cell robust z, rep 3: -0.656

For mil, how do the results read?
Wolbachia per cell robust z, rep 1: -0.478; Wolbachia per cell robust z, rep 2: -0.133; Wolbachia per cell robust z, rep 3: 0.23

With CG15418 + Ugt36A1 #1, how do the results read?
Wolbachia per cell robust z, rep 1: 1.03; Wolbachia per cell robust z, rep 2: 1.13; Wolbachia per cell robust z, rep 3: -0.995

Which result is listed for CG15418 + Ugt36A1 #2?
Wolbachia per cell robust z, rep 1: 0.255; Wolbachia per cell robust z, rep 2: 0.596; Wolbachia per cell robust z, rep 3: 0.318

With CG13713, how do the results read?
Wolbachia per cell robust z, rep 1: -0.0519; Wolbachia per cell robust z, rep 2: 0.285; Wolbachia per cell robust z, rep 3: -0.397

With Nepl4, how do the results read?
Wolbachia per cell robust z, rep 1: 0.566; Wolbachia per cell robust z, rep 2: 0.496; Wolbachia per cell robust z, rep 3: -0.16

How did the screen score CG32371 #1?
Wolbachia per cell robust z, rep 1: 0.828; Wolbachia per cell robust z, rep 2: 0.773; Wolbachia per cell robust z, rep 3: 1.41

How did the screen score CG32371 #2?
Wolbachia per cell robust z, rep 1: -1.63; Wolbachia per cell robust z, rep 2: 0.738; Wolbachia per cell robust z, rep 3: -0.642

Which result is listed for CG7656?
Wolbachia per cell robust z, rep 1: 0.0898; Wolbachia per cell robust z, rep 2: 1.49; Wolbachia per cell robust z, rep 3: 0.107

For CG4645 #1, what was measured?
Wolbachia per cell robust z, rep 1: -3.34; Wolbachia per cell robust z, rep 2: 0.188; Wolbachia per cell robust z, rep 3: 0.115

For CG4645 #2, what does the deposit list?
Wolbachia per cell robust z, rep 1: -1.91; Wolbachia per cell robust z, rep 2: -0.161; Wolbachia per cell robust z, rep 3: -0.243

3 entries from above, limited to “Wolbachia per cell robust z, rep 1”.
MED27: 0.295
dunk #1: -4.33
dunk #2: 0.128
